Assay results: patent publication US20260069689A1, “ANTI-SARS-COV-2-SPIKE GLYCOPROTEIN ANTIBODIES AND ANTIGEN-BINDING FRAGMENTS” (Regeneron, published 2026)

Each binder was assayed against T1, SARS-CoV-2 spike protein, wild-type (Wuhan-Hu-1) or D614G control (SARS-CoV-2) (assay: cell-based or functional assay).

| Binder | IC50 (pseudoparticle neutralization) [pM] |
| --- | --- |
| mAb15156 (antibody) heavy: not shown light: QSVLTQPPSASGTPGQRVTISCSGSRSNIGINTVNWYQQFPGTALNLLIFSDNQRPSGVPDRFSGSKSGTSASLAISGLQSEDEADYYCAAWDDSLNGPDWVFGGGTKLTVLGQPKAAPSVTLFPPSSEELQANKATLVCLISDFYPGAVTVAWKADSSPVKAGVETTTPSKQSNNKYAASSYLSLTPEQWKSHRSYSCQVTHEGSTVEKTVAPTECS | 20.9 |
| mAb15164 (antibody) heavy: not shown light: QSALTQPASVSGSPGQSITISCTGTSSDFGNYNIVSWYQQHPGQAPKVMIYEGNKRPSGVSNRFSGSKSGHTASLTISGLQAEDEADYYCSSYAGSSTWVFGGGTKLTVLGQPKAAPSVTLFPPSSEELQANKATLVCLISDFYPGAVTVAWKADSSPVKAGVETTTPSKQSNNKYAASSYLSLTPEQWKSHRSYSCQVTHEGSTVEKTVAPTECS | 24.8 |
| mAb15165 (antibody) heavy: not shown light: QSALTQPASVSGSPGQSITISCTGTSSDFGSYNLVSWYQQHPGKAPKLMIYEGNKRPSGVSIRFSGSKSGNTASLTISGLQAEDEADYYCSSYAGSSTWVFGGGTKLTVLGQPKAAPSVTLFPPSSEELQANKATLVCLISDFYPGAVTVAWKADSSPVKAGVETTTPSKQSNNKYAASSYLSLTPEQWKSHRSYSCQVTHEGSTVEKTVAPTECS | 29.6 |
| mAb15166 (antibody, V domains shown) VH: EVQLVESGGGLVQPGGSLRLSCAASGFTVTSNYMSWVRQAPGKGLEWVSAIYSGESTYYADSVKGRFTISRDSSKNTLYLQMNSLRVEDTAVYYCASIHDYSNYVGGFDPWGQGTLVTVSS VL: QSALTQPASVSGSPGQSITISCTGPSSDFGSYNLVSWYQQHPGKAPKLMIYEGTKRPSGVSNRFSGSKSGNTASLTISGLQAEDEADYYCSSYAGSSTWVFGGGTKLTVLG | 16.1 |
| mAb15167 (antibody, V domains shown) VH: QVQLQESGPGLVKPSETLSLTCTVSGGSISGYYWSWIRQPPGKGLEWIGYIYYSGSTNYNPSLKSRVTMSVDTSKNQFSLKLSSVTAADTAVYYCARYPLYSESSGYHFDYWGHGTLVTVSS VL: QSALTQPASVSGSPGQSITISCTGTSSDVGSYNLVSWYQQDPGKAPKLMLYEDSKRPSGVSNRFSGSKSGNTASLTISGLQAEDEADYYCSSYAGRSTWVFGGGTKLTVLG | 29.5 |
| mAb14256 (antibody) heavy: not shown light: QSVLTQPPSVSGAPGQRVTISCTGSSSNIGTHYDVHWYQQLPGTAPKLLIYGNSNRPSGVPDRFSGSKSGTSASLAITGLQAEDEADYYCQSFDNSLTAPYVFGTGTKVTVLGQPKAAPSVTLFPPSSEELQANKATLVCLISDFYPGAVTVAWKADSSPVKAGVETTTPSKQSNNKYAASSYLSLTPEQWKSHRSYSCQVTHEGSTVEKTVAPTECS | 54.7 |
| mAb15157 (antibody, V domains shown) VH: EVQLVESGGALVQPGGSLRLSCAASGFPFTIYAMTWVRQAPGKGLEWVSVITGSGDSTYYADSVKGRFTISRDNSKNTLYLQMNSLRAEDTAVYYCVKTGEGFFYYYYGMDVWGQGTTVTVSS VL: QSVLTQPPSVSAAPGQKVTISCSGSSSNIGNSYISWYQQLPGTAPKLLIYVNNKRPSGIPDRFSGSKSGTSATLGITGLQTGDEADYYCGTWDSSLSAGVFGSGTKVTVLG | 37.2 |
| mAb15163 (antibody, V domains shown) VH: EVQLVETGGGLIQPGESLRLSCAASGFIVSTNYMNWVRQAPGKGLEWVSVIYRGGSTYYADSVKGRFTISRDNSKNTLFLQMNSLRAEDTAVYYCARGHEDFDYDTPASGAFDIWGQGTMVTVSS VL: QSALTQPPSASGSPGQSVTISCTGTSSDVGGHNYVSWYQQHPGKAPKVMIYEVSKRPSGVPDRFSGSKSGNTASLTVSGLQAEDEADYYCSSYAGSNKFVFGTGTKVTVLG | 62.8 |

Target: T1, SARS-CoV-2 spike protein, wild-type …
Experiment: cell-based or functional assay
Remark: another data set of the same source

| Binder | IC50 (pseudoparticle neutralization) [pM] |
| --- | --- |
| mAb14256 (antibody) heavy: not shown light: QSVLTQPPSVSGAPGQRVTISCTGSSSNIGTHYDVHWYQQLPGTAPKLLIYGNSNRPSGVPDRFSGSKSGTSASLAITGLQAEDEADYYCQSFDNSLTAPYVFGTGTKVTVLGQPKAAPSVTLFPPSSEELQANKATLVCLISDFYPGAVTVAWKADSSPVKAGVETTTPSKQSNNKYAASSYLSLTPEQWKSHRSYSCQVTHEGSTVEKTVAPTECS | 26.1 |
